Test results from publication PMC4608832, “Synthesis of New 4-Aminoquinolines and Evaluation of Their In Vitro Activity against Chloroquine-Sensitive and Chloroquine-Resistant Plasmodium falciparum” (PLoS ONE, 2015).

Key:
[1] = system: P. falciparum K1 (CQ-resistant); experiment: In vitro antiplasmodial activity, 3H-hypoxanthine incorporation, strain K1; format: cell-based, Plasmodium falciparum; details: RI = IC50 K1/IC50 3D7
Experimental: The following strains of Plasmodium falciparum were used in this study: F32 (Tanzania), Dd2 (SE Asia), K1 (SE Asia), FcB1 (Colombia), K14 (Cambodia) and 3D7 (Africa). […] Parasites at the ring stage (laboratory A) or asynchronous parasites (laboratory B) were grown in human A+ or O+ red blood cells at a 1.5% (laboratory A) or 2% (laboratory B) haematocrit and a 0.8–1% parasitaemia. Synchronization of the parasites was performed by sorbitol treatment.
Further dilutions were in complete culture medium. The complexes were tested for their inhibitory effect toward P. falciparum intraerythrocytic development. […] 100 μL from a culture at a 3% (laboratory A) or 4% (laboratory B) hematocrit in complete medium was added per well. […] Plates were freeze-thawed and harvested on filters. […] The percentage of growth inhibition was calculated from the parasite-associated radioactivity. 100% ^3H-hypoxanthine incorporation was determined from a control grown in the absence of drug or test compound.

[2] = system: human MRC-5 cell line; experiment: Cytotoxicity, MTT, MRC5 cells; format: cell-based; details: CC50 MRC5 / IC50 P. falciparum
Experimental: (§1) The rat L-6 and human MRC-5 cell lines were routinely grown in RPMI 1640 supplemented with 11 mM glucose, 27.5 mM NaHCO3, 100 UI/mL penicillin, 100 μg/mL streptomycin and 10% fetal calf serum (RPMI-FCS), in a 5% CO2 incubator at 37°C. For cytotoxicity assays, 100 μL per well of a 2×10^4 cells/mL suspension in RPMI-FCS were deposited in a 96-well microplate and incubated overnight in culture conditions. Then decreasing concentrations of the compounds to test were established by twofold serial dilutions in RPMI-FCS and distributed at a rate of 100 μL per well and the microplate was put back in the incubator for an additional three (L-6) or five (MRC-5) day period. Then the supernatant in each well was discarded and replaced by 100 μL of MTT 1 mg/mL in RPMI-FCS. The microplate was re-incubated in culture conditions for three hours, then 100 μL of 10% SDS was added by well. The cells were left overnight in the incubator then the OD at 540nm was measured with the Bio-Tek FL600™ microplate reader equipped with the KC4™ software. […] The selectivity of each compound to P. falciparum was assessed through the selectivity index (SI), defined as CC50 (to L6 or MRC5 cells) / IC50 (to P. falciparum).

[3] = system: rat L-6 cell line; experiment: Cytotoxicity, MTT, L6 cells; format: cell-based; details: CC50 L6 / IC50 P. falciparum
Experimental: as §1

Compound | Resistance Index K1/3D7 ([1]; laboratory A) | Resistance Index K1/3D7 ([1]; laboratory B) | SI (min-max), MRC5, CQR strains ([2]; CQ-resistant strains) | SI (min-max), MRC5, CQS strains ([2]; CQ-sensitive strains) | SI (min-max), L6, CQR strains ([3]; CQ-resistant strains) | SI (min-max), L6, CQS strains ([3]; CQ-sensitive strains)
CCN(CC)Cc1cc(Nc2ccnc3cc(Cl)ccc23)ccc1O [AQ, amodiaquine, reference compound] | 1.4 | 0.8 |  |  |  | 
CCN(CC)Cc1ccccc1CNc1ccnc2cc(Cl)ccc12 [Compound 1, 7-Chloro-N-(2-((diethylamino)methyl)benzyl)quinolin-4-amine] | 3.9 | 0.7 | 421–2182 | 880–1955 | 442–2289 | 923–2052
CCN(CC)Cc1cccc(CNc2ccnc3cc(Cl)ccc23)c1 [Compound 2, 7-Chloro-N-(3-((diethylamino)methyl)benzyl)quinolin-4-amine] | 3.5 | 0.7 |  |  |  | 
CCN(CC)Cc1ccc(CNc2ccnc3cc(Cl)ccc23)cc1 [Compound 3, 7-Chloro-N-(4-((diethylamino)methyl)benzyl)quinolin-4-amine] | 3.5 | 0.8 |  |  |  | 
CCN(CC)Cc1ccc(-c2ccc(CNc3ccnc4cc(Cl)ccc34)cc2)cc1 [Compound 4, 7-Chloro-N-((4’-((diethylamino)methyl)-[1,1’-biphenyl]-4-yl)methyl)quinolin-4-amine] | 3.5 | 0.9 |  |  |  | 
